According to patent US20160304570A1, “Potent and selective inhibitors of nav1.3 and nav1.7” (published 2016):

Key:
Test in all cases: cell-based or functional assay
[1] = target: human voltage-gated sodium channel Nav1.3 (human), Q9NY46
[2] = target: human voltage-gated sodium channel Nav1.5 (human), Q14524
[3] = target: human voltage-gated sodium channel Nav1.7 (human), Q15858

Row | Binder | IWQ Use Nav1.3 [1] [µM] | IWQ Use Nav1.5 [2] [µM] | IWQ Use Nav1.7 [3] [µM] | IWQ Use Nav1.3 (µM), IC50 of peak inward current [1] [µM] | IWQ Use Nav1.5 (µM), IC50 of peak inward current [2] [µM] | IWQ Use Nav1.7 (µM), IC50 of peak inward current [3] [µM] | also measured
1 | RCLGFMRKCIPDNDKCCRPNLVCSRTHKWCKYVF (modifications not checked) [[Arg1]GpTx-1(1-34)] | 0.1 | 8.78 | 0.11 | – | – | – | –
2 | DCLGFMRKCIPDNDKCCRPNLVCSRTHKWCKWVF (modifications not checked) [[Trp32]GpTx-1(1-34)] | 0.16 | 6.74 | 0.09 | – | – | – | –
3 | DCLGFMRKCIPDNDKCCRPNLVCSRTHKWCKVVF (modifications not checked) [[Val32]GpTx-1(1-34)] | 0.08 | 14.8 | 0.15 | – | – | – | –
4 | DCLGFMRKCIPDNDKCCRPNLVCSRNHKWCKYVF (modifications not checked) [[Asn26]GpTx-1(1-34)] | – | – | – | 0.1 | 6.29 | 0.09 | –
5 | DCLGFMRKCIPDNDKCCRPNLVCSRTHKWCKYFF (modifications not checked) [[Phe33]GpTx-1(1-34)] | – | – | – | – | – | – | IC50, IWQ Use Nav1.3 [1]: 0.04 µM; IC50, IWQ Use Nav1.5 [2]: 8.66 µM; IC50, IWQ Use Nav1.7 [3]: 0.06 µM
6 | DCLGFMRKCIPDNDKCCRPNLVCSRTHKWCKRVF (modifications not checked) [[Arg32]GpTx-1(1-34)] | 0.87 | 8.65 | 1.02 | – | – | – | –
7 | DCLGFMRKCIPDNDKCCRPNLVCSRIHKWCKYVF (modifications not checked) [[Ile26]GpTx-1(1-34)] | – | – | – | 0.03 | 8.15 | 0.05 | –
8 | ECLGFMRKCIPDNDKCCRPNLVCSRTHKWCKYVF (modifications not checked) [[Glu1]GpTx-1(1-34)] | 0.15 | 14.2 | 0.22 | – | – | – | –
9 | DCLGFMRKCIPDNDKCCRPNLVCSRTHKWCKYMF (modifications not checked) [[Met33]GpTx-1(1-34)] | – | – | – | – | – | – | IC50, IWQ Use Nav1.3 [1]: 0.08 µM; IC50, IWQ Use Nav1.5 [2]: 15.1 µM; IC50, IWQ Use Nav1.7 [3]: 0.07 µM
10 | DCLGFMRKCIPDNDKCCRPNLVCSRTHKWCKYAF (modifications not checked) [[Ala33]GpTx-1(1-34)] | – | – | – | – | – | – | IC50, IWQ Use Nav1.3 [1]: 0.35 µM; IC50, IWQ Use Nav1.5 [2]: 18.6 µM; IC50, IWQ Use Nav1.7 [3]: 0.33 µM
11 | DCLGFMRKCIPDNDKCCRPNLVCSRHHKWCKYVF (modifications not checked) [[His26]GpTx-1(1-34)] | – | – | – | 0.08 | 4.52 | 0.1 | Nav1.5 Use IC50 (PatchXpress electrophysiology) [2]: 4.95 µM; Nav1.7 Use IC50 (PatchXpress electrophysiology) [3]: 0.003 µM
12 | DCLGFMRKCIPDNDKCCRPNLVCSRYHKWCKYVF (modifications not checked) [[Tyr26]GpTx-1(1-34)] | – | – | – | 0.06 | 5.51 | 0.08 | –
13 | DCLGFMRKCIPDNDKCCRPNLVCSRTHKWCKHVF (modifications not checked) [[His32]GpTx-1(1-34)] | – | – | – | – | – | – | IWQ Use Nav1.3 (µM); IC50 of peak inward current, IonWorks Quattro [1]: 0.75 µM; IWQ Use Nav1.5 (µM); IC50 of peak inward current, IonWorks Quattro [2]: 10.2 µM; IWQ Use Nav1.7 (µM); IC50 of peak inward current, IonWorks Quattro [3]: 0.6 µM
14 | DCLGFMRKCIPDNDKCCRPNLVCSRFHKWCKYVF (modifications not checked) [[Phe26]GpTx-1(1-34)] | – | – | – | 0.1 | 5.88 | 0.08 | –
15 | DCLGFMRKCIPDNDKCCRPNLVCSRTHKWCKYRF (modifications not checked) [[Arg33]GpTx-1(1-34)] | – | – | – | – | – | – | IC50, IWQ Use Nav1.3 [1]: 0.05 µM; IC50, IWQ Use Nav1.5 [2]: 9.55 µM; IC50, IWQ Use Nav1.7 [3]: 0.08 µM
16 | DCLGFMRKCIPDNDKCCRPNLVCSRTHKWCKMVF (modifications not checked) [[Met32]GpTx-1(1-34)] | 0.14 | 6.21 | 0.35 | – | – | – | –
17 | DCLGFMRKCIPDNDKCCRPNLVCSRVHKWCKYVF (modifications not checked) [[Val26]GpTx-1(1-34)] | – | – | – | 0.04 | 8.93 | 0.06 | –
18 | DCLGFMRKCIPDNDKCCRPNLVCSRTHKWCKYKF (modifications not checked) [[Lys33]GpTx-1(1-34)] | – | – | – | – | – | – | IC50, IWQ Use Nav1.3 [1]: 0.07 µM; IC50, IWQ Use Nav1.5 [2]: 9.56 µM; IC50, IWQ Use Nav1.7 [3]: 0.07 µM
19 | DCLGFMRKCIPDNDKCCRPNLVCSRTHKWCEYVF (modifications not checked) [[Glu31]GpTx-1(1-34)] | 13.1 | 21.7 | 23 | – | – | – | –
20 | DCLGFMRKCIPDNDKCCRPNLVCSRTHKWCAYVF (modifications not checked) [[Ala31]GpTx-1(1-34)] | 7.39 | 14.5 | 7.94 | – | – | – | –
